Columns and labels:
Assay type in all cases: cell-based, Leishmania (Leishmania) amazonensis
[1] = tested on: L. (L.) amazonensis promastigotes; experiment: Growth inhibition of promastigotes, MTT assay, 72 h; details: for Promastigotes SI J774A.1: SI = CC50 (J774A.1)/IC50; for Promastigotes SI VERO: SI = CC50 (VERO)/IC50
Protocol: (§1) The species Leishmania (Leishmania) amazonensis (IFLA/BR/67/PH8) was maintained in promastigote form at a temperature of 26 °C in a biochemical oxygen demand incubator (BOD) (Eletrolab EL202, São Paulo, Brazil) and in complete Schneider medium (20% heat-inactivated fetal bovine serum (FBS), and 1% antibiotic solution). The L. (L.) amazonensis axenic amastigote forms were obtained through the differentiation of infective promastigote forms using Schneider medium supplemented with 5% FBS, pH 4.6, at a temperature of 32 °C. Parasite growth was observed daily and, if necessary, weekly repeats were performed.
(§2) Promastigote forms or axenic amastigotes in an exponential growth phase were cultured in 96-well plates with complete Schneider’s medium, at 1 × 10^6 parasites/mL. […] The plates were incubated for 72 h under a BOD at 26 °C to prepare promastigotes and 32 °C to prepare amastigotes. When ready, 10 μL of MTT (5 mg/mL) was added to all wells (with the exception of the blank) with an incubation for 4 h. Subsequently, 50 μL of SDS solution (dodecyl sodium sulfate) at 10% was added to dissolve the formazan crystals, and a spectrophotometric reading was then performed (Biotek model ELx800, Winooski, VT, USA) at 540 nm. Schneider medium with 0.5% DMSO was used, considering a 0% growth inhibition for the negative control.

[2] = tested on: L. (L.) amazonensis axenic amastigotes; experiment: Growth inhibition of axenic amastigotes, MTT assay, 72 h
Protocol: as §1, §2

[3] = tested on: L. (L.) amazonensis intracellular amastigotes; experiment: Activity against intramacrophageal amastigotes in infected J774A.1 macrophages; details: for Intracellular Amastigotes SI J774A.1: SI = CC50 (J774A.1)/EC50; for Intracellular Amastigotes SI VERO: SI = CC50 (VERO)/EC50
Protocol: Macrophages were added to 24-well culture plates containing complete RPMI medium and sterile 13 mm coverslips, 1 × 10^5 J774A.1, and for cell adhesion incubated at 37 °C and 5% CO2 for 3 h. The medium was then removed, and three washes with PBS at 37 °C to remove non-adherent cells were performed. New medium, together with metacyclic promastigote forms in a proportion of 10 promastigotes/macrophage, was then added to the wells for infection and then incubated for another 4 h at 37 °C and 5% of CO2. The medium was then removed again and the plate washed with PBS to remove non-internalized […]. […] Subsequently, the coverslips were removed, stained with a quick panoptic kit, and mounted with Entelan®. In each coverslip, 300 macrophages were counted, together with the number of internalized amastigotes through optical microscopy at 1000× magnification. For the negative control, complete RPMI medium with 0.5% DMSO was used. At the end of the macrophage infection assay, the supernatant was stored at −20 °C for the subsequent evaluation of NO production.

| Compound | Promastigotes SI J774A.1 [1] | Promastigotes SI VERO [1] | Axenic Amastigotes SI VERO ([2]; SI = CC50 (VERO)/EC50) | Intracellular Amastigotes SI J774A.1 [3] | Intracellular Amastigotes SI VERO [3] | Axenic Amastigotes SI J774A.1 ([2]; SI = CC50 (J774A.1)/EC50) |
| --- | --- | --- | --- | --- | --- | --- |
| C[C@@H]1[C@H](O)[C@@H](C)/C=C/C=C/C=C/C=C/C=C/C=C/C=C/[C@H](O[C@@H]2O[C@H](C)[C@@H](O)[C@H](N)[C@@H]2O)C[C@@H]2O[C@](O)(C[C@@H](O)C[C@@H](O)[C@H](O)CC[C@@H](O)C[C@@H](O)CC(=O)O[C@H]1C)C[C@H](O)[C@H]2C(=O)O [Amphotericin B, reference compound] | 1.05 | 0.9 | 360.6 | 1.31 | 1.10 | – |
| Meglumine antimoniate [reference compound] | 0.76 | 0.80 | – | 30.37 | 32.09 | 1.01 |
